Pooled drug test results. Numbers come from NIAID ChemDB, via PubChem.

All rows: growth or infection tests; organism: HIV-1; cells: CEM; method: syncytia; read-out: fold resistance

Neighbouring rows are from separate reports.

compound	mutations	strain or isolate	result
CC1=C(C(=O)Nc2cccc(C(=O)OC(C)C)c2)SCCO1	RT-E138K	TSAO-resistant (RT E138K)	>2.5
CCc1c(Sc2cc(C)cc(C)c2)n(COCCO)c(=O)[nH]c1=O	RT-L100I	IIIB (TIBO 82150) (RT-L100I)	6.67
CC1=C(C(=O)Nc2ccc(Cl)c(C(=O)OC(C)C)c2)SCCO1	RT-V106A	IIIB	>1500
COc1ccc(NC(=O)C2=C(C)OCCS2)cc1OCC=C(Cl)Cl	RT-K103N	TIBO R82913-resistant (RT K103N)	2.5
CC(C)OC(=S)Nc1ccc(Cl)c(C(=O)OC2CCCC2)c1	RT-V106A		27.3
Cc1sccc1C(=O)Nc1ccc(Cl)c(OCC=C(Cl)Cl)c1	RT-V106A	Nevirapine-resistant isolate (RT V106A)	13.3
CC(C)=CCOc1cc(NC(=S)c2ccoc2C)ccc1Cl	RT-E138K	IIIB	2
C/C(Cl)=C/COc1cc(NC(=O)c2ccoc2C)ccc1Cl	RT-V106A	Nevirapine-resistant isolate (RT V106A)	3.33
CC(C)OC(=O)c1cc(NC(=S)OC(C)(C)C)ccc1Cl	RT-V106A		1.42
CCc1c(Cc2cc(C)cc(C)c2)n(COCCO)c(=O)[nH]c1=O	Nevirapine resistant (RT Y181C)	IIIB	53.6
COC(=O)c1cc(NC(=S)OC(C)C)ccc1Cl	RT-L100I		12
CCSCC1=C(C(=O)Nc2ccc(Cl)c(C(=O)OC(C)C)c2)SCCO1	RT-Y181C	PYR-resistant (RT Y181C)	>3.33
COc1ccc(NC(=S)c2ccoc2C)cc1OCC=C(Cl)Cl	RT-L100I	TIBO R82150-resistant (RT L100I)	6.25
CCC(C)OC(=S)Nc1ccc(Cl)c(C(=O)OC(C)(C)C)c1	RT-V106A		11.7
CC1=C(C(=O)Nc2cc(Cl)cc(C(=O)OC(C)C)c2)SCCO1	RT-Y181C	PYR-resistant (RT Y181C)	1.1
CC1=C(C(=O)Nc2ccc(Cl)c(C(=O)OC(C)C)c2)SCCO1	RT-V106A	IIIB	>1450
CC1=C(C(=O)Nc2cc(C(=O)OC(C)C)c(C)cc2F)SCCO1	RT-L100I	TIBO-resistant (RT L100I)	>4.35
COc1ccc(NC(=S)c2ccsc2C)cc1OCC=C(Cl)Cl	RT-Y188H	HEPT-resistant (RT Y188H)	400
CCOC(=O)c1cc(NC(=O)C2=C(CC)OCCS2)ccc1Cl	RT-Y181C	PYR-resistant (RT Y181C)	100
C=C(Cl)COc1cc(NC(=S)c2ccoc2C)ccc1C	RT-E138K	TSAO-m3T-resistant (RT E138K)	6.67
COCCOC(=S)Nc1ccc(Cl)c(C(=O)OC(C)C)c1	RT-V106A		36.8
COC(=O)c1cc(NC(=O)C2=C(C)OCCS2)ccc1Cl	RT-E138K	TSAO-resistant (RT E138K)	>2.5
CC(C)OC(=S)Nc1ccc(Cl)c(C(=O)OCC(F)(F)F)c1	RT-E138K		20
Cc1sccc1C(=S)Nc1ccc(Cl)c(OCC=C(Cl)Cl)c1	RT-Y188H	HEPT-resistant (RT Y188H)	286
COc1ccc(NC(=S)OC(C)C)cc1CC(=O)OC(C)C	RT-L100I		92.2
CC(C)c1c(Sc2ccccc2)n(COCCO)c(=O)[nH]c1=O	RT-Y181C	IIIB	196
CCCOC(=S)Nc1ccc(Cl)c(C(=O)OC(C)C)c1	RT-Y181C		110
CCOCn1c(Sc2ccccc2)c(C(C)C)c(=O)[nH]c1=O	RT-Y181C	IIIB	52
CC(C)OC(=O)Nc1ccc(Cl)c(C(=O)OC(C)C)c1	RT-Y181C		>1.82
CC(C)OC(=O)c1cc(NC(=S)OC(C)C)ccc1Cl	RT-L100I	IIIB	71
C/C=C\COc1cc(NC(=S)OC(C)C)ccc1Cl	RT-V106A		150
CC1=C(C(=O)Nc2ccc(Cl)c(C(=O)OCC3CCC3)c2)SCCO1	RT-V106A	Nevirapine-resistant (RT V106A)	47.1
CCCCCOC(=S)Nc1ccc(Cl)c(C(=O)OC(C)C)c1	RT-E138K		10.9
CCOCn1c(Sc2cc(C)cc(C)c2)c(CC)c(=O)[nH]c1=O	RT-Y181I	IIIB	150
CC[C@H](C)OC(=S)Nc1ccc(Cl)c(C(=O)OC(C)C)c1	RT-E138K		2.33
CCC(=O)Oc1ccc(NC(=O)C2=C(C)OCCS2)cc1C(=O)OC(C)C	RT-Y181C	PYR-resistant (RT Y181C)	>2.22

The last 4 rows once more:

{"compound": "CCCCCOC(=S)Nc1ccc(Cl)c(C(=O)OC(C)C)c1", "mutations": "RT-E138K", "result": "10.9"}
{"compound": "CCOCn1c(Sc2cc(C)cc(C)c2)c(CC)c(=O)[nH]c1=O", "mutations": "RT-Y181I", "strain or isolate": "IIIB", "result": "150"}
{"compound": "CC[C@H](C)OC(=S)Nc1ccc(Cl)c(C(=O)OC(C)C)c1", "mutations": "RT-E138K", "result": "2.33"}
{"compound": "CCC(=O)Oc1ccc(NC(=O)C2=C(C)OCCS2)cc1C(=O)OC(C)C", "mutations": "RT-Y181C", "strain or isolate": "PYR-resistant (RT Y181C)", "result": ">2.22"}

Blank or dashed fields: not listed here. Fold resistance has wild type as its base.